Pooled drug test results. Numbers come from NIAID ChemDB, via PubChem.

Shared fields: tests in culture; organism: Staphylococcus aureus

Rows are shuffled and stem from different studies. Zone: diameter of growth inhibition.

O=C1O[C@@H](COc2ccon2)CN1c1ccc(N2CCOCC2)c(F)c1 ; read-out: MIC ; strain: 078 (oxford) ; result: 2 µg/mL
CCCCCCCCCCCC[N+](C)(C)COCC(C)CC ; read-out: MBC ; strain: ATCC 6538 ; result: 8.57 µM
N#Cc1ccc(N2CCN(c3ccc(N4C[C@H](COc5ccncn5)OC4=O)cc3F)CC2)nc1 ; read-out: MIC ; strain: 122 (novobiocin-resistant) ; result: 16 µg/mL
CCCCCCCCCOC[N+](C)(C)CCCCCCCC ; read-out: MBC ; strain: ATCC33592 ; result: 143 µM
O=C1O[C@@H](COc2ccon2)CN1c1ccc(-n2cccc2)cc1 ; read-out: MIC ; strain: 004 (methicillin quinolone-resistant) ; result: 8 µg/mL
COC(CN(C)c1cc2c(cc1F)c(=O)c(C(=O)O)cn2C1CC1)OC ; read-out: MIC ; strain: ATCC 5278 (methicillin-resistant) ; result: 3.12 µg/mL
CC(C)C[C@@H]1NC(=O)CNC(=O)[C@@H]2CCCN2C(=O)[C@H](CC(N)=O)NC(=O)[C@H](C)NC(=O)[C@H](Cc2ccc(O)cc2)NC(=O)[C@H]2CCCC2C1=O ; tested at: 12.5 µg/mL ; read-out: zone ; result: 10 mm
CCCCCCCCCCCC[N+](C)(C)COCC(C)CCC ; read-out: MIC ; strain: ATCC33592 ; result: 1.65 µM
CCCCN(CCCC)CCCNc1cc2c(cc1F)c(=O)c(C(=O)O)cn2C1CC1 ; read-out: MIC ; strain: ATCC 5278 (methicillin-resistant) ; result: >100 µg/mL
O=C1O[C@@H](COc2ccon2)CN1c1ccc(N2CCC(O)CC2)c(F)c1 ; read-out: MIC ; strain: 078 (oxford) ; result: 4 µg/mL
COCCNc1cc2c(cc1F)c(=O)c(C(=O)O)cn2C1CC1 ; read-out: MIC ; strain: ATCC 5278 (methicillin-resistant) ; result: 3.12 µg/mL
CCCCCCCCCCCC[N+](C)(C)COCCCCCCCCC ; read-out: MBC ; strain: ATCC 6538 ; result: 3.69 µM
N#Cc1ccc(N2CCN(c3ccc(N4C[C@H](CNc5ccon5)OC4=O)cc3F)CC2)nn1 ; read-out: MIC ; strain: 078 (oxford) ; result: 1 µg/mL
NCCCNc1cc2c(cc1F)c(=O)c(C(=O)O)cn2-c1ccc(F)cc1F ; read-out: MIC ; strain: ATCC 6538P ; result: 0.39 µg/mL
C=CCCCCCC(CCCCBr)CCCC(=O)NCCC=C ; tested at: 100 µg/disc ; read-out: zone ; method: agar diffusion ; strain: NCIM 2079 ; result: 20 mm
COC(=O)N1CCN(c2ccc(N3C[C@H](COc4ccon4)OC3=O)cc2F)CC1 ; read-out: MIC ; strain: 004 (methicillin quinolone-resistant) ; result: 2 µg/mL
CCCCCCCCCCCC[N+](C)(C)COCCC(C)CCCC(C)C ; read-out: MIC ; strain: ATCC 6538 ; result: 11.9 µM
COC(CNc1cc2c(cc1F)c(=O)c(C(=O)O)cn2C1CC1)OC ; read-out: MIC ; strain: ATCC 5278 (methicillin-resistant) ; result: >100 µg/mL